Assay results taken from patent publication US20020102533A1 (priority 2000, published 2002).

Assay: general procedure: Fmoc solid-phase peptide synthesis; Wang resin
Conditions: TFA

Row | Substance | step yield (late stage modification step) | step yield (coupling step)
1 | Boc-Asp(Obu-)Glu(OBu)-Val-Val-Pro-AlgCF2CF3 | 66.6% | 
2 | Boc-Asp(OBu)-Glu(OBu)-Val-Val-Pro—NH—CH(Allyl)CH(OH)CF2CF3 |  | 41.9%
